Pooled drug test results. Numbers come from NIAID ChemDB, via PubChem.

Shared fields: whole-cell or culture tests; species: Hepatitis C virus; endpoint: EC50

Rows are shuffled and stem from different studies.

compound,strain or isolate,read by,result
COCCN(C(=O)C1CCC(C)CC1)c1cc(-c2ccc(-c3cn4ccccc4n3)cc2)sc1C(=O)O,1b,replicon / ELISA,0.01–0.049 µM
CCOc1nc(NCc2cocn2)nc2ccc(-c3ccc(F)cc3)nc12,-,replicon,<0.1 µM
CC1CCC(C(=O)N(CC2CCOCC2)c2cc(-c3ccc(-c4cn5ccccc5n4)cc3)sc2C(=O)O)CC1,1a,replicon / ELISA,0.005–0.0099 µM
NS(=O)(=O)c1ccc(CNc2nc(NCC(F)(F)F)c3nc(-c4cccc(S(N)(=O)=O)c4)ccc3n2)cc1,-,replicon,<0.1 µM
COCC(C)N(C(=O)C1CCC(C)CC1)c1cc(-c2ccc(-c3cc4ncccn4n3)cc2)sc1C(=O)O,1b,replicon / ELISA,0.005–0.0099 µM
O=C(Nc1cccc(-c2cc(-c3c(N4CCOCC4)cccc3C(F)(F)F)no2)c1)C(Cl)Cl,-,replicon,≤10 µM
COCC(COC)N(C(=O)C1CCC(C)CC1)c1cc(-c2ccc(-c3cc4ncccn4n3)cc2)sc1C(=O)O,1a,replicon / ELISA,0.001–0.0049 µM
CC(C)N(C(=O)c1ccc(Cl)cc1Cl)c1cc(-c2ccc(-c3nn[nH]n3)cc2)sc1C(=O)O,1b,replicon / ELISA,>5 µM
O=C1N[C@H]2C(=O)N[C@H]3C(=O)N[C@H](C(=O)N[C@H](C(=O)O)c4cc(O)cc(O)c4-c4cc3ccc4O)[C@H](O)c3ccc(c(Cl)c3)Oc3cc2cc(c3O)Oc2ccc(cc2Cl)C[C@H]2NC(=O)[C@H](Nc3ccc(-c4ccccc4)cc3)c3ccc(O)c(c3)Oc3cc(O)cc(c3)[C@@H]1NC2=O,Huh 9-13,luciferase,15 µM
COC(=O)N[C@@H](C(=O)N[C@@H](C)c1ncc(-c2ccc(-c3ccc(-c4cnc([C@H]5CCCN5C(=O)[C@H](NC(=O)OC)c5ccccc5)[nH]4)cn3)cc2)[nH]1)c1ccccc1,1b,-,0.00001–0.000999 µM
C[C@@H](O)C(=O)Nc1ccc(-c2ccc3nc(NCc4ccc(S(N)(=O)=O)cc4)nc(NCC(F)(F)F)c3n2)cc1,-,replicon,<0.1 µM
CN(C)c1cc(Cl)c(-c2cc(-c3cccc(N(C)C(=O)C(Cl)Cl)c3)on2)c(Cl)c1,-,replicon,≤10 µM
CC(C)(N)C(=O)Nc1ccc(-c2ccc3nc(NCc4ccc(F)cc4)nc(NCC(F)(F)F)c3n2)cc1,-,replicon,<0.1 µM
O=C(Nc1cccc(-c2cc(-c3ccccc3C(F)(F)F)no2)c1)C(Cl)Cl,-,replicon,≤10 µM
CN(C)S(=O)(=O)NC(=O)c1c(-c2ccc[nH]c2=O)c2c3occc3ccc2n1Cc1cc2ccccc2nc1Cl,-,replicon,<0.5 µM
CC(C)N(C(=O)c1ccc(C(F)(F)F)cc1C(F)(F)F)c1cc(-c2ccc(-c3cc4ncccn4n3)cc2)sc1C(=O)O,1b,luciferase / replicon,0.1–0.5 µM
COC(=O)N[C@H](C(=O)N1CCC[C@@H]1c1ncc(-c2ccc(-c3ccc(-c4cnc([C@@]5(C)CCCN5C(=O)[C@@H](Nc5n[nH]c(N)n5)C(C)C)[nH]4)cc3)cc2)[nH]1)C(C)C,1b,-,0.00001–0.000999 µM
Cc1cc(Br)ccc1C(=O)N(c1cc(-c2ccc(-c3cn4ccccc4n3)cc2)sc1C(=O)O)C(C)C,1a,replicon / ELISA,0.1–0.5 µM
COC(=O)N[C@H](C(=O)N1CCC[C@@H]1c1ncc(-c2cnc(-c3ccc(-c4nc([C@H]5CCCN5C(=O)[C@@H](NC(=O)OC)C(C)C)[nH]c4C(F)(F)F)cc3)nc2)[nH]1)C(C)C,1b,-,0.00001–0.000999 µM
CS(=O)(=O)NC(=O)c1c(-c2ccc[nH]c2=O)c2c3c(ccc2n1Cc1ccccc1F)OCCO3,-,replicon,<1 µM
COC(=O)N[C@H](C(=O)N1CCC[C@@H]1c1ncc(-c2cnc(-c3ccc(-c4nc([C@H]5CCCN5C(=O)[C@@H](NC(=O)OC)C5CC5)[nH]c4C(F)(F)F)cc3)nc2)[nH]1)C1CC1,1b,-,0.00001–0.000999 µM
Cc1cccc(C(F)(F)F)c1-c1cc(-c2cccc(NC(=O)C(Cl)Cl)c2)on1,-,replicon,≤10 µM
CCCS(=O)(=O)NC(=O)c1c(-c2ccc[nH]c2=O)c2c3occc3c(F)cc2n1Cc1cc2ccccc2nc1Cl,-,replicon,<0.5 µM
CCOCCN(C(=O)C1CCC(C)CC1)c1cc(-c2ccc(-c3cc4ncccn4n3)cc2)sc1C(=O)O,1b,replicon / ELISA,0.005–0.0099 µM
C[C@H](NC(=O)[C@@H](c1ccccc1)N(C)C)c1ncc(-c2cnc(-c3ccc(-c4cnc([C@H]5CCCN5C(=O)[C@@H](c5ccccc5)N(C)C)[nH]4)cc3)cn2)[nH]1,1b,-,0.00001–0.000999 µM
O=C(Nc1cccc(-c2cc(-c3c(F)ccc(F)c3Cl)no2)c1)C(Cl)Cl,-,replicon,≤10 µM
CCOc1nc(NCc2ccc(C(=O)N(C)C)cc2)nc2ccc(-c3ccc(F)cc3)nc12,-,replicon,<0.1 µM
CC1CCC(C(=O)N(c2cc(-c3ccc(-c4cc5ncccn5n4)cc3)sc2C(=O)O)C2CCC(O)CC2)CC1,1a,replicon / ELISA,0.01–0.049 µM
CC(C)N(C(=O)c1ccc(Cl)cc1Cl)c1cc(-c2ccccc2)sc1C(=O)O,1b,luciferase / replicon,>5 µM
O=C(Nc1ccc(S(=O)(=O)N2CCOCC2)c(-c2cc(-c3c(Cl)cccc3Cl)no2)c1)C(Cl)Cl,-,replicon,≤10 µM
CS(=O)(=O)NC(=O)c1c(-c2ccc[nH]c2=O)c2c3c(ccc2n1Cc1cc(F)ccc1F)OCCO3,-,replicon,<1 µM
CC1CCC(C(=O)N(c2cc(-c3ccc(-c4cc5nccc(N)n5n4)cc3)sc2C(=O)O)C2CCOCC2)CC1,1a,replicon / ELISA,0.001–0.0049 µM
Cc1c[nH]c(=O)cc1Cn1c(C(=O)O)c(-c2ccc[nH]c2=O)c2c3occc3c(F)cc21,-,replicon,<0.5 µM
Cc1cc(-c2cnc([C@@H]3CCCN3C(=O)[C@@H](c3ccccc3)N(C)C)[nH]2)ccc1-c1ccc(-c2cnc([C@@H]3CCCN3C(=O)[C@H](c3ccccc3)N(C)C)[nH]2)cn1,1b,-,0.00001–0.000999 µM
O=C(O)c1ccc(F)c(Cn2c(C(=O)O)c(-c3ccc[nH]c3=O)c3c4occc4c(F)cc32)c1,-,replicon,0.5–1.5 µM
CN(C)[C@@H](C(=O)N1CCC[C@@H]1c1ncc(-c2cnc(-c3cnc(-c4cnc([C@H]5CCCN5C(=O)[C@@H](c5ccccc5)N(C)C)[nH]4)cn3)cn2)[nH]1)c1ccccc1,1b,-,0.001–0.099 µM
CC(C)N(C(=O)c1ccc(Cl)cc1Cl)c1cc(-c2ccc(-c3cn4ccsc4n3)cc2)sc1C(=O)O,1a,luciferase / replicon,0.1–0.5 µM
CN(C(=O)C(Cl)Cl)c1cccc(-c2cc(-c3c(Cl)cccc3Cl)no2)c1,-,replicon,≤10 µM
COC(=O)N[C@H](C(=O)N1CCC[C@@H]1c1ncc(-c2ccc(-c3ncc(-c4cnc([C@H]5CCCN5C(=O)[C@@H](NC(=O)OC)C(C)C)[nH]4)cn3)cc2)[nH]1)C(C)C,1b,-,0.00001–0.000999 µM

For reference, 4 entries again:

{"compound": "Cc1cc(Br)ccc1C(=O)N(c1cc(-c2ccc(-c3cn4ccccc4n3)cc2)sc1C(=O)O)C(C)C", "strain or isolate": "1a", "read by": "replicon / ELISA", "result": "0.1–0.5 µM"}
{"compound": "CC1CCC(C(=O)N(c2cc(-c3ccc(-c4cc5ncccn5n4)cc3)sc2C(=O)O)C2CCC(O)CC2)CC1", "strain or isolate": "1a", "read by": "replicon / ELISA", "result": "0.01–0.049 µM"}
{"compound": "CC1CCC(C(=O)N(c2cc(-c3ccc(-c4cc5nccc(N)n5n4)cc3)sc2C(=O)O)C2CCOCC2)CC1", "strain or isolate": "1a", "read by": "replicon / ELISA", "result": "0.001–0.0049 µM"}
{"compound": "COC(=O)N[C@H](C(=O)N1CCC[C@@H]1c1ncc(-c2cnc(-c3ccc(-c4nc([C@H]5CCCN5C(=O)[C@@H](NC(=O)OC)C(C)C)[nH]c4C(F)(F)F)cc3)nc2)[nH]1)C(C)C", "strain or isolate": "1b", "result": "0.00001–0.000999 µM"}

ECn is the concentration giving n% inhibition of infection, replication or growth. Blank or dashed fields: not listed here. Two numbers with a dash give a range or band.